A mixed list of measured activities; the numbers were collected in NIAID ChemDB.

Shared fields: target-level tests; agent: Hepatitis C virus; protein: NS3/NS4A protease

Two numbers with a dash give a range or band. ICn is the concentration giving n% inhibition. Blank or dashed fields: not listed here. Rows are shuffled and stem from different studies.

| smiles | measure | strain or isolate | value |
|---|---|---|---|
| C#CC[C@@H](C=O)C(=O)[C@H](CCC(=O)O)NC(=O)[C@H](CCC(=O)O)NC(=O)[C@H](CCSC)NC(=O)[C@H](CCC(=O)O)NC(=O)[C@H](CC(=O)O)NC(=O)CCC(=O)O | IC50 |  | 23 µM |
| C=CC1C[C@]1(NC(=O)[C@@H]1C[C@@H](Oc2cc(-c3ccccc3)nc3cc(OC)ccc23)CN1C(=O)[C@@H](NC(=O)OC(C)(C)C)C(C)(C)C)C(=O)NS(=O)(=O)C1CCS(=O)(=O)C1 | IC50 | BMS | <0.1 µM |
| Cc1ccccc1C[C@H](NC(=O)[C@H](CCC(=O)O)NC(=O)[C@H](CC(=O)O)NC(=O)CCC(=O)O)C(=O)N[C@H](C(=O)N[C@@H](CC(C)C)C(=O)N[C@H](C=O)CSCc1ccccc1)C(C)(C)C | IC50 |  | 0.3 µM |
| CCCC(NC(=O)[C@@H]1C[C@@H](OC(=O)N2CCc3ccccc3C2)CN1C(=O)[C@H](NC(=O)[C@H](NC(=O)c1cnccn1)C(C)C)C(C)C)C(=O)C(=O)NC1CC1 | Ki |  | 0.22 µM |
| C=CC1C[C@@]1(NC(=O)[C@@H]1C[C@@H](Oc2cc(-c3ccccc3)nc3cc(OC)ccc23)CN1C(=O)[C@@H](NC(=O)O[C@H]1CC(C)CC[C@@H]1C(C)C)C(C)(C)C)C(=O)NS(=O)(=O)C1(Cc2ccccc2)CC1 | IC50 | BMS | 0.5–5 µM |
| C=CC1C[C@]1(NC(=O)[C@@H]1C[C@@H](Oc2cc(-c3ccccc3)nc3cc(OC)ccc23)CN1C(=O)[C@@H](NC(=O)OC(C)(C)C)C(C)(C)C)C(=O)NS(=O)(=O)c1nc2ccc(OCC)cc2s1 | IC50 | BMS | 0.1–1 µM |
| C#CC[C@@H](C=O)C(=O)[C@H](CCC(=O)O)NC(=O)[C@@H](CCC(=O)O)NC(=O)[C@H](Cc1ccccc1)NC(=O)[C@H](CCC(=O)O)NC(=O)[C@H](CC(=O)O)NC(=O)CCC(=O)O | IC50 |  | 41 µM |
| C=CC1CC1(NC(=O)[C@@H]1C[C@@H](OC(=O)Nc2cccc(C(F)(F)F)c2)CN1C(=O)[C@@H](NC(=O)OC(C)(C)C)C(C)(C)C)C(=O)O | IC50 | BMS/H77C/J416S | >10 µM |
| C=CC1C[C@@]1(NC(=O)[C@@H]1C[C@@H](Oc2cc(-c3ccccc3)nc3cc(OC)ccc23)CN1C(=O)[C@@H](NC(=O)CC(C)(C)C)C(C)(C)C)C(=O)NS(=O)(=O)C1(Cc2ccccc2)CC1 | IC50 | BMS | 0.05–0.5 µM |
| CCCCCC[C@@H](C=O)NC(=O)[C@H](CC(C)C)NC(=O)[C@@H](NC(=O)[C@H](Cc1ccccc1C)NC(=O)[C@H](CCC(=O)O)NC(=O)[C@H](CC(=O)O)NC(=O)CCC(=O)O)C(C)(C)C | IC50 |  | 0.225 µM |
| C=CC1CC1(NC(=O)[C@@H]1C[C@@H](Oc2cc(-c3ccccc3)nc3cc(OC)ccc23)CN1C(=O)[C@@H](NC(=O)OC(C)(C)C)C(C)(C)C)C(=O)NS(=O)(=O)C1(C(=O)NCCC)CC1 | IC50 | BMS | <0.05 µM |
| CC[C@@H](C=O)NC(=O)[C@H](CC(C)C)NC(=O)[C@@H](NC(=O)[C@H](Cc1ccccc1C)NC(=O)[C@H](CCC(=O)O)NC(=O)[C@H](CC(=O)O)NC(=O)CCC(=O)O)C(C)(C)C | IC50 |  | 0.54 µM |
| C=CC1C[C@]1(NC(=O)[C@@H]1C[C@@H](Oc2cc(-c3ccccc3)nc3cc(OC)ccc23)CN1C(=O)[C@@H](NC(=O)OC(C)(C)C)C(C)(C)C)C(=O)NS(=O)(=O)c1ccc(Br)s1 | IC50 | BMS | <0.1 µM |
| C=CC1CC1(NC(=O)[C@@H]1C[C@@H](OC(=O)Nc2ccccc2-n2cccc2)CN1C(=O)[C@@H](NC(=O)OC(C)(C)C)C(C)(C)C)C(=O)NS(=O)(=O)C1CC1 | IC50 | BMS/H77C/J416S | <0.1 µM |
| C=CC1C[C@]1(NC(=O)[C@@H]1C[C@@H](Oc2cc(-c3ccccc3)nc3cc(OC)ccc23)CN1C(=O)[C@@H](NC(=O)OC(C)(C)C)C(C)(C)C)C(=O)NS(=O)(=O)c1ccc(C)cn1 | IC50 | BMS | <0.1 µM |
| C=CC1CC1(NC(=O)[C@@H]1C[C@@H](OC(=O)Nc2ncccc2C(=O)OCC)CN1C(=O)[C@@H](NC(=O)OC(C)(C)C)C(C)(C)C)C(=O)NS(=O)(=O)C1CC1 | IC50 | BMS/H77C/J416S | <0.1 µM |
| C=CC1C[C@]1(NC(=O)[C@@H]1C[C@@H](Oc2cc(-c3ccccc3)nc3cc(OC)ccc23)CN1C(=O)[C@@H](NC(=O)OC(C)(C)C)C(C)(C)C)C(=O)NS(=O)(=O)c1ccc(Sc2ccc(Cl)cc2)s1 | IC50 | BMS | 0.1–1 µM |
| C=CC1CC1(NC(=O)[C@@H]1C[C@@H](OC(=O)N[C@H](C(=O)OC)[C@@H](C)CC)CN1C(=O)[C@@H](NC(=O)OC(C)(C)C)C(C)(C)C)C(=O)NS(=O)(=O)C1CC1 | IC50 | BMS/H77C/J416S | 1–10 µM |
| CC[C@H](C)[C@@H](NC(=O)[C@H](CCSC)NC(=O)[C@H](CCC(=O)O)NC(=O)[C@H](CC(=O)O)NC(=O)CCC(=O)O)C(=O)N[C@@H](CCC(=O)O)C(=O)N[C@H](C=O)CC(F)(F)F | IC50 |  | 3 µM |
| C=CC1CC1(NC(=O)[C@@H]1C[C@@H](OC(=O)Nc2cccc(C(F)(F)F)c2)CN1C(=O)[C@@H](NC(=O)OC(C)(C)C)C(C)(C)C)C(=O)NS(=O)(=O)C1CC1 | IC50 | BMS/H77C/J416S | 0.1–1 µM |
| C#CC[C@@H](C=O)C(=O)[C@H](CCC(=O)O)NC(=O)[C@@H](Cc1ccccc1)NC(=O)[C@H](CCSC)NC(=O)[C@H](CCC(=O)O)NC(=O)[C@H](CC(=O)O)NC(=O)CCC(=O)O | IC50 |  | 5 µM |
| C=CCNC(=O)C(=O)[C@H](CC1CCC1)NC(=O)[C@@H]1[C@@H]2[C@H](CN1C(=O)[C@@H](NC(=O)[C@@H](NC(=O)c1cnccn1)C1CCCCC1)C(C)(C)C)C2(C)C | Ki |  | 0.018 µM |
| C=C[C@H]1C[C@@]1(NC(=O)[C@@H]1C[C@@H](Oc2ccnc3cc(Cl)ccc23)CN1C(=O)[C@@H](NC(=O)OC1CCCC1)C(C)(C)C)C(=O)NS(=O)(=O)C1(CC2CC2)CC1 | IC50 | BMS | <0.05 µM |
| C=CC1CC1(NC(=O)[C@@H]1C[C@@H](OC(=O)NCc2ccccc2C)CN1C(=O)[C@@H](NC(=O)OC(C)(C)C)C(C)(C)C)C(=O)NS(=O)(=O)C1CC1 | IC50 | BMS/H77C/J416S | 0.1–1 µM |

A second listing of 2 rows from above:

| smiles | measure | strain or isolate | value |
|---|---|---|---|
| C=CC1CC1(NC(=O)[C@@H]1C[C@@H](OC(=O)NCc2ccccc2C)CN1C(=O)[C@@H](NC(=O)OC(C)(C)C)C(C)(C)C)C(=O)NS(=O)(=O)C1CC1 | IC50 | BMS/H77C/J416S | 0.1–1 µM |
| C=CC1C[C@]1(NC(=O)[C@@H]1C[C@@H](Oc2cc(-c3ccccc3)nc3cc(OC)ccc23)CN1C(=O)[C@@H](NC(=O)OC(C)(C)C)C(C)(C)C)C(=O)NS(=O)(=O)c1ccc(Sc2ccc(Cl)cc2)s1 | IC50 | BMS | 0.1–1 µM |